Laboratory results reported in patent US20090105467.

Molecular target: T1, RNase H (Escherichia coli) (UniProt P0A7Y4)
T1 sequence (looked up, limits assumed): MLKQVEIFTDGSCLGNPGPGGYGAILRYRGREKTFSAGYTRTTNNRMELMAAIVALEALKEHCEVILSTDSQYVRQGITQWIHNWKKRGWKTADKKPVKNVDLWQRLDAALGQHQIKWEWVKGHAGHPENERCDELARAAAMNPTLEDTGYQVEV
Assay: enzyme reaction in vitro
Details: purified recombinant protein, label: 5'-32P on target RNA

AGCUCCCAGGCUCAGAUC / GAUCUGAGCCUGGGAGCU [3',5'-RNA 18-mer/HIV R region RNA]
activity on this sequence (no RNase H degradation, variant of DNA 18-mer/HIV R region RNA): not active

AGCTCCCAGGCTCAGATC [DNA 18-mer/HIV R region RNA]
activity on this sequence (target RNA degraded, Mn2+ or Mg2+, 25 C, DNA:RNA hybrid): active

Negatives hold for the conditions tested. Where a protein sequence is shown, tags need not be part of it. Construct, isoform or probe ends are uncertain for at least one entry.
